Results of unrelated studies side by side (data: NIAID ChemDB).

Common to all: growth or infection tests; agent: Poliovirus; read-out: inhibition

Percent inhibition refers to the dose given; in toxicity tests it is the harm to the cells.

smiles | strain or isolate | dose | cells | value
CCC(O)c1ccc2c(c1)Sc1ccccc1O2 | TYPE 3 | 2 µg/mL | BSC-1 | 31%
CC(=O)O[C@H]1CC2=CCC3C(CCC4(C)C(C(CCC=C(C)C)COS(=O)(=O)O)CCC34)C2(C)C[C@@H]1OS(=O)(=O)O | TYPE 3 | 40 µg/mL | VERO | 36.3%
C/C(=N\O)c1ccc2c(c1)Sc1ccccc1O2 | TYPE 3 | 2 µg/mL | BSC-1 | 94%
CC(C)=CCCC(CO)C1CCC2C3CC=C4C[C@H](O)[C@@H](O)CC4(C)C3CCC12C | TYPE 3 | 40 µg/mL | VERO | 19.2%
Clc1ccc(C2COc3ccc(Cl)cc3C2)cc1 | IB (TYPE 2) | 10 µM | HEP-2 | 0%
CC(O)c1ccc2c(c1)Sc1ccccc1S2 | TYPE 3 | 0.4 µg/mL | BSC-1 | 12%
CCC(=O)C(CCCCCCOc1ccc(OC)cc1Cl)C(=O)CC | MEF (TYPE 2) | 0.54 µM | HeLa | 98%
CC(=O)c1ccc2c(c1)Sc1cc(C(C)=O)ccc1O2 | TYPE 3 | 10 µg/mL | BSC-1 | 5%
CC(C)=CCCC(COS(=O)(=O)O)C1CCC2C3CC=C4C[C@H](O)[C@@H](OS(=O)(=O)O)CC4(C)C3CCC12C | TYPE 3 | 80 µg/mL | VERO | 6.8%
Clc1ccc(C2CCc3ccccc3O2)c(Cl)c1 | SABIN (TYPE 2) | 10 µM | HEP-2 | 5%
CC12CCC3C(C[C@H](OS(=O)(=O)O)[C@H]4C[C@@H](OS(=O)(=O)O)CCC34C)C1CCC2C(=O)CO | TYPE 3 | 40 µg/mL | VERO | 0%
Clc1ccc(C2=Cc3cc(Cl)ccc3OC2)cc1 | IB (TYPE 2) | 10 µM | HEP-2 | 5%
CC(C)C/C=C/[C@@H](COS(=O)(=O)O)[C@H]1CC[C@H]2[C@@H]3CC[C@@H]4[C@H](O)[C@H](OS(=O)(=O)O)CC[C@]4(C)[C@H]3[C@@H](O)C[C@]12C | SABIN (TYPE 3) | 40 µg/mL | VERO | 47%
c1ccc(C2COc3ccccc3C2)cc1 | II (TYPE 2) | 10 µM | HEP-2 | 36%
C=C(CC[C@@H](COS(=O)(=O)O)[C@H]1CC[C@H]2[C@@H]3CC[C@@H]4[C@H](O)[C@H](OS(=O)(=O)O)CC[C@]4(C)[C@H]3[C@@H](O)C[C@]12C)C(C)C | SABIN (TYPE 3) | 40 µg/mL | VERO | 54%
Brc1ccc(C2=Cc3ccccc3OC2)cc1 | SABIN (TYPE 2) | 10 µM | HEP-2 | 23%
CC(=O)c1ccc2c(c1)Sc1ccccc1S2 | TYPE 3 | 0.4 µg/mL | BSC-1 | 17%
Clc1ccc2c(c1)CC(c1ccccc1)CO2 | IA (TYPE 2) | 10 µM | HEP-2 | 63%
CC(O)c1ccc2c(c1)S(=O)(=O)c1ccccc1O2 | TYPE 3 | 10 µg/mL | BSC-1 | 18%

Again, the opening 2 rows:

CCC(O)c1ccc2c(c1)Sc1ccccc1O2 ; strain or isolate: TYPE 3 ; dose: 2 µg/mL ; cells: BSC-1 ; value: 31%
CC(=O)O[C@H]1CC2=CCC3C(CCC4(C)C(C(CCC=C(C)C)COS(=O)(=O)O)CCC34)C2(C)C[C@@H]1OS(=O)(=O)O ; strain or isolate: TYPE 3 ; dose: 40 µg/mL ; cells: VERO ; value: 36.3%

Lines come from different laboratories, so protocols vary.